Assay results published in publication PMC3542062, “A phenyl-thiadiazolylidene-amine derivative ejects zinc from retroviral nucleocapsid zinc fingers and inactivates HIV virions” (Retrovirology, 2012).

Assays:
MT-4 cells = experiment: Cytotoxicity in mock-infected MT-4 cells (MTT); type: cell-based
NCp7(11-55) = experiment: Zinc ejection monitored by Trp37 intrinsic fluorescence; type: biochemical, HIV-1; settings: 10 μM compound, 100 μM zinc, after 30 minutes
Method: Subsequently, the zinc ejection from NCp7(11-55) by WDO-217 exposure was investigated in function of time (Figure 1B and C). […] Ejection of 50% of the zinc is observed in less than 5 minutes (Figure 4C).
Figure 4 Zinc ejection from the NCp7(11-55) zinc fingers by WDO-217. (A) Emission spectra of NCp7(11-55) (1 μM) recorded in the absence (disks) and the presence of 10 μM WDO-217 (star). As a reference, NCp7(11-55) was treated with 1 mM EDTA, a well known zinc chelator (triangle). Pre-incubation time of WDO-217 with NCp7(11-55) was 1 hour. (B) Time-dependent zinc ejection from NCp7(11-55). The emission spectra of NCp7(11-55) (1 μM) were recorded in the absence (disks) and presence of WDO-217 (10 μM) at the different time points as indicated. […] The data points (stars) corresponded to the fluorescence intensity at the maximum emission wavelength from panel B. Solid line represents a double-exponential fit to the data. […] Then, 10 μM of WDO-217 was added, and the spectrum was recorded after 30 minutes of incubation (square). […]
The NC(11-55) peptide was synthesized by solid phase peptide synthesis on a 433A synthesizer (ABI, Foster City, CA), as previously described. The lyophilized peptide was dissolved in water, and its concentration was determined using an extinction coefficient of 5,700 M^–1 x cm^–1 at 280 nm. […]
Absorption spectra were recorded on a Cary 400 spectrophotometer. […]

For `Cn1sc(=N)nc1-c1ccccc1` [WDO-217, 2-methyl-3-phenyl-2H-[1,2,4]thiadiazol-5-ylideneamine], the average selective index (MT-4 cells) was “approximately 20” and the “zinc ejection in presence of 100-fold excess of zinc sulphate” value (NCp7(11-55)) was “nearly complete ejection”.
